Values of other authors in PMC4594927 (PLoS ONE, 2015).

Protein sequences, listed by entry. Tags and fused reporters are not part of them. Residues count along the entry.
UniProt A0A6L8P2U9, 1-487: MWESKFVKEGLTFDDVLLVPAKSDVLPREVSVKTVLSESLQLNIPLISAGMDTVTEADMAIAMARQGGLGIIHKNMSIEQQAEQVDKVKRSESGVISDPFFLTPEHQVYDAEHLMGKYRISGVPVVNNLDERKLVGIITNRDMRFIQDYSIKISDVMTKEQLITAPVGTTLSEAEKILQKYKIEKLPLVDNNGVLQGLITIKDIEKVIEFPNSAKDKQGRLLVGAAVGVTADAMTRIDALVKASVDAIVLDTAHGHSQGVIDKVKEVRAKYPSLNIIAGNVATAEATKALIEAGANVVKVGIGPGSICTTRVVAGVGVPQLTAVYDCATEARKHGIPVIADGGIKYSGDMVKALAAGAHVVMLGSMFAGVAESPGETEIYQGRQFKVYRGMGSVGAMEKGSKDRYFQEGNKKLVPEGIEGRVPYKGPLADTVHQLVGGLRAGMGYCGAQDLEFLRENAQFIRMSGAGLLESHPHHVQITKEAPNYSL

molecular target: BaIMPDH (Bacillus anthracis, UniProt A0A6L8P2U9); conditions: read-out: Ki,app BaIMPDH; cited from earlier work

**Q.** With `CC(=O)c1cccc(C(C)(C)NC(=O)Nc2ccc(Cl)cc2)c1` [P20] as the compound, how does the Ki read?
**A.** The Ki was 160 ± 60 nM.

**Q.** For `CON=C(C)c1cccc(C(C)(C)NC(=O)Nc2ccc(Cl)c(C(F)(F)F)c2)c1` [P83], which Ki is on record?
**A.** The Ki was 15 ± 2 nM.

**Q.** With `CON=C(C)c1cccc(C(C)(C)NC(=O)Nc2ccc(Cl)c(C#N)c2)c1` [P69] as the compound, how does the Ki read?
**A.** The Ki was 15 ± 1 nM.

**Q.** Which Ki does the source give for `CC(=NO)c1cccc(C(C)(C)NC(=O)Nc2ccc(Cl)c(Cl)c2)c1` [P47] here?
**A.** Its Ki is 95 ± 30 nM.
